The source of these data is patent publication US6525028B1, “Immunoeffector compounds” (Corixa Corporation, priority 2002, dated 2003).

The subject of the assay is 51Cr-labeled transfected P815S cells expressing the L^d-restricted epitope. Description: CTL activity of spleen cells of HBsAg immunized mice, four hour 51Cr-release assay (Example 7). The following applies: spleen cells 9 days post-vaccination, four day incubation with peptide.

Regarding “Monophosphoryl lipid A [MPL® immunostimulant, reference compound]”, the “Percent Specific Killing (Effector:Target Ratio) 6.25:1” value (E:T 6.25:1) came out at 32%. For the same substance, for the setting “E:T 12.5:1”, the “Percent Specific Killing (Effector:Target Ratio) 12.5:1” value was determined as 47%. The “Percent Specific Killing (Effector:Target Ratio) 25:1” value (E:T 25:1) was found to be 71%.
